Experiment [1] deals with SARS-CoV spike glycoprotein (S) (SARS-CoV) (UniProt P59594). Put plainly: SPR.
Experiment [2] addresses SARS-CoV-2 Wuhan-Hu-1 spike glycoprotein (S) (SARS-CoV-2 Wuhan-Hu-1). Put plainly: SPR.

For the substance “His6-tagged monomeric ACE2 (ACE2-H6) (from UniProt Q9BYF1 18-740) (receptor)”, the values for the Kd in experiment [1] and in experiment [2] were 351 nM and 153 nM, respectively.

(Values after paper PMC9461429.)
